Results of unrelated studies side by side (data: NIAID ChemDB).

Shared fields: growth or infection tests; organism: Influenza A virus

Two numbers with a dash give a range or band.

| smiles | cells | method | strain or isolate | read-out | value |
|---|---|---|---|---|---|
| Nc1nc(Cl)cc(NCC2(CO)CC(OCc3ccccc3)C2)n1 | MDCK | plaque count | H1N1 A/PR/8/34 | EC50 | 13–20 µM |
| CCC(CC)O[C@@H]1C=C(C(=O)O)C[C@H](N)[C@H]1NC(C)=O | MDCK | plaque count | Influenza A/Johannesburg/33/94 (H3N2) | EC50 | 0.04 µM |
| C[C@@H]1C2CCCC(C2NCc2ccccc2)[C@@H]1C | MDCK | plaque count | - | EC50 | >100 µM |
| NC(=O)c1nc(F)c[nH]c1=O | MDCK | plaque count | H1N1 A/PR/8/34 | EC50 | <1 µg/mL |
| O=C(NC1CC1)c1cc2c(s1)-c1ccccc1N(C(=O)c1ccc(NC(=O)c3ccccc3-c3ccccc3)cc1)CC2 | HeLa | plaque count | Influenza A/Ishikawa/7/82 (H3N2) | EC50 | >100 µM |
| CC(N)C12CC3CC(CC(C3)C1)C2 | MDCK | ELISA | H1N1 10 French isolates | EC50 | 0.051 µg/mL |
| CC#Cc1cn([C@@H]2O[C@H](COP(=O)(OCC)Oc3ccccc3)[C@@H](O)[C@@H]2O)c(=O)[nH]c1=O | MDCK | plaque count | H1N1 A/Sweden/3/50 | EC50 | >100 µM |
| Nc1ncnc2c1ncn2[C@@H]1O[C@H](C=NOCc2ccccc2)[C@@H](O)[C@H]1O | MDCK | cytopathic effect | Ishiwara | EC50 | 20 µg/mL |
| N#Cc1cc(CC(=O)c2ccccc2)c(=O)n2c1sc1ccccc12 | MDCK | plaque count | Influenza A/Ishikawa/7/82 (H3N2) | EC50 | >40 µg/mL |
| CC1=C(C)C2CCCC1C2N | MDCK | plaque count | - | EC50 | 12.5 µM |
| Nc1ncnc2c1ccn2[C@@H]1C[C@H](O)[C@@H](O)[C@H]1O | MDCK | - | Influenza A/Ishikawa/222/82 (H3N2) | EC50 | >100 µg/mL |
| CC1(C)C[C@H](O)C[C@](C)(CNC(=S)c2ccccc2)C1 | MDCK | cytopathic effect | H1N1 A/WSN/33 | EC50 | >10 µg/mL |
| C[C@H](CO)[C@@H](OC(=O)NCCCCCCN)[C@@H]1OC(C(=O)O)=C[C@H](N=C(N)N)[C@H]1NC(=O)O | MDCK | plaque count | H3N2 AICHI | EC50 | 0.005 µg/mL |
| Nc1nc(Cl)c(/C=N/O)c(NCC2(CO)CC(CCc3ccccc3)C2)n1 | MDCK | plaque count | H1N1 A/PR/8/34 | EC50 | 0.26–0.77 µM |
| CC1=C(C)C2C(N)C1CC[C@H]2C(C)C | MDCK | plaque count | - | EC50 | >20 µM |
| CON=C[C@H]1O[C@@H](n2cnc3c(N)ncnc32)[C@H](O)[C@@H]1O | MDCK | cytopathic effect | Ishiwara | EC50 | 0.8 µg/mL |
| Nc1nc2c(ncn2[C@@H]2O[C@H](CO)[C@@H](O)[C@H]2F)c(=O)[nH]1 | MDCK | plaque count | H1N1 A/Sweden/3/50 | EC50 | 22 µM |
| CC(C)[C@H]1CCC2C(N)C1[C@@H](C)[C@H]2C | MDCK | plaque count | - | EC50 | 33 µM |
| CCOc1ncn(-c2ccc(NC(=S)Nc3cnccn3)cc2)n1 | MDCK | cytopathic effect | Ishikawa | EC50 | >20 µg/mL |
| CC1=C(C)C2C(N)C1[C@H](C(C)C)C[C@H]2C | MDCK | plaque count | - | EC50 | 53 µM |
| O=C(/C=C/c1ccc(O)c(O)c1)O[C@@H]1CC(O)(C(=O)O)C[C@@H](OC(=O)/C=C/c2ccc(O)c(O)c2)C1O | MDCK | cytopathic effect | A/Shandong/09/93 (H3N2) | EC50 | >100 µM |
| N#Cc1cc(C#N)c2[nH]c3ccccc3n2c1=O | MDCK | plaque count | A/Bangkok | EC50 | 70 µg/mL |
| Nc1nccc(NCC2(CO)CC(CCc3ccccc3)C2)n1 | MDCK | plaque count | H1N1 A/PR/8/34 | EC50 | 4.5–16 µM |
| CC(C)Oc1ccccc1NC(=O)Nc1ccc2cnccc2n1 | - | plaque count | - | EC50 | >32 µg/mL |
| CC1=C(c2ccccc2)C2CCCC1C2N | MDCK | plaque count | - | EC50 | >25 µM |
| N#C/C(=C(\N)N1CC[N+]2(CC1)CC[N+]1(CCN(/C(N)=C(/C#N)[N+](=O)[O-])CC1)CC2)[N+](=O)[O-] | MDCK | cytopathic effect | - | EC50 | >70 µg/mL |
| C/C=C\[C@@H]1C[C@H](C(=O)O)N[C@H]1[C@@H](NC(C)=O)[C@](C)(CCC)OC | MDCK | plaque count | H1N1 isolate C1D | EC50 | ≤0.025 µg/mL |
| CCN(C(=O)N1C[C@H](N)[C@](O)(C(=O)O)C1)C(C)C | MDCK | cytopathic effect | Influenza A/Victoria/3/75 (H3N2) | EC50 | 2 µM |
| CCCOc1ncn(-c2ccc(NC(=S)Nc3cnccn3)cc2)n1 | MDCK | cytopathic effect | Ishikawa | EC50 | ≥100 µg/mL |
| Cc1ccccc1C(=S)NC[C@@]1(C)C[C@@H](O)CC(C)(C)C1 | MDCK | cytopathic effect | H1N1 A/WSN/33 | EC50 | >10 µg/mL |
| CCOc1ncn(-c2ccc(NC(=S)NC34CC5CC(CC(C5)C3)C4)cc2)n1 | MDCK | cytopathic effect | Ishikawa | EC50 | 20 µg/mL |
| CC(CC(=O)CC(C)(O)C1=C[C@@H](O)[C@@]2(C)C34OC3C[C@H]3C(C)(C)C(=O)CC[C@]3(C)C4=CC(=O)[C@]12C)C(=O)O | MDCK | - | - | EC50 | 190 µM |
| CC(C)=CCc1c(O)cc(O)c(C(=O)/C=C/c2ccccc2)c1O | - | - | Panama | EC50 | 100 µg/mL |
| CCOC(=O)c1cc(C#N)c2[nH]c3ccccc3n2c1=O | MDCK | plaque count | Influenza A/Ishikawa/7/82 (H3N2) | EC50 | >40 µg/mL |
| CC(=O)N[C@H]1[C@H]([C@H](O)[C@H](O)CO)OC(C(=O)O)=C[C@@H]1N=C(N)N | MDCK | virus yield | H3N2 A/AICHI/1168 | EC50 | 0.06 µM |
| CCOc1ncn(-c2ccc(NC(=S)NC3O[C@H](CO)[C@@H](O)[C@H](O)[C@H]3O)cc2)n1 | MDCK | cytopathic effect | Ishikawa | EC50 | >200 µg/mL |
| CCC(CC)O[C@@H]1C=C(C(=O)O)C[C@H](N)[C@H]1NC(C)=O | MDCK | visual reading | Influenza A/Washington/05/96 (H3N2) | EC50 | 0.03 µM |
| CCCCCCCCCCCCCCCCO[C@H]1N([C@H]2C[C@H](N=[N+]=[N-])[C@@H](CO)O2)C(=O)NC(=O)[C@]1(C)Br | MDCK | cytopathic effect | B/Singapore/222/79 | EC50 | >500 µg/mL |
| CC(=O)O[C@H]1CC[C@@]23Oc4c(c(O)cc5c4CNC5=O)C[C@]2(C)[C@@H](C)CC[C@H]3C1(C)C | MDBK | - | H1N1 A/WSN/33 | EC50 | 0.23 µM |
| CC(=O)c1cc(NC(=O)c2ccccc2)c(=O)n2c1[nH]c1ccccc12 | MDCK | plaque count | Influenza A/Ishikawa/7/82 (H3N2) | EC50 | >40 µg/mL |
| C[C@H](CO)[C@@H](OC(=O)N1CCNCC1)[C@@H]1OC(C(=O)O)=C[C@H](N=C(N)N)[C@H]1NC(=O)O | MDCK | plaque count | H3N2 AICHI | EC50 | 0.031 µg/mL |
| Nc1nccc2c1ncn2[C@@H]1C[C@H](CO)[C@@H](O)[C@H]1O | MDCK | cytopathic effect | - | EC50 | 100 µg/mL |
| O=C(CCBr)N1CC[N+]2(CC1)CC[N+]1(CCN(C(=O)CCBr)CC1)CC2 | MDCK | cytopathic effect | - | EC50 | >70 µg/mL |
| Nc1nc2c(ncn2[C@@H]2C[C@H](CO)[C@H]2CO)c(=O)[nH]1 | MDCK | plaque count | WSN | EC50 | >377 µM |
| Cc1nc(N2CCCC2)c([N+](=O)[O-])c(N2CC[N+]3(CC2)CC[N+]2(CCN(c4nc(C)nc(N5CCCC5)c4[N+](=O)[O-])CC2)CC3)n1 | MDCK | cytopathic effect | - | EC50 | >70 µg/mL |
| CC1(C)C[C@H](O)C[C@](C)(CNC(=S)c2cccc(Cl)c2)C1 | MDCK | cytopathic effect | H1N1 A/WSN/33 | EC50 | >10 µg/mL |
| C[C@H]1CC[C@H]2C(C)(C)[C@H](O)CC[C@]23Oc2c(c(O)cc4c2CNC4=O)C[C@]13C | MDBK | - | H1N1 A/WSN/33 | EC50 | 0.012 µM |
| [N-]=C=Nc1nncs1 | MDCK | virus yield | Influenza A/Virginia/88 (H3N2) | EC50 | <1 µg/mL |
| N#Cc1cc(NC(=O)c2ccccc2)c(=O)n2c1[nH]c1ccccc12 | MDCK | plaque count | Influenza A/Ishikawa/7/82 (H3N2) | EC50 | 2 µg/mL |
| COc1cc2c(c3c1C[C@]1(C)[C@@H](C)CC[C@H]4C(C)(C)[C@@H](OC(C)=O)CC[C@]41O3)CNC2=O | MDBK | - | H1N1 A/WSN/33 | EC50 | >23 µM |
| CC#Cc1cn([C@@H]2O[C@H](COP(=O)(O)Oc3ccc(F)cc3)[C@@H](O)[C@@H]2O)c(=O)[nH]c1=O | MDCK | plaque count | H1N1 A/Sweden/3/50 | EC50 | >100 µM |
| CCCNC(=O)O[C@@H]([C@@H]1OC(C(=O)O)=C[C@H](N)[C@H]1NC(=O)O)[C@H](C)CO | MDCK | plaque count | H3N2 AICHI | EC50 | 1.25 µg/mL |
| Nc1nc(Cl)c(N)c(NCC2(CO)CCC2)n1 | MDCK | plaque count | H1N1 A/PR/8/34 | EC50 | 35–43 µM |
| Nc1nc2c(ccn2[C@@H]2C[C@H](CO)[C@H](O)[C@@H]2O)c(=O)[nH]1 | - | - | Influenza A/Victoria/3/75 (H3N2) | MIC | >100 µg/mL |
| COS(=O)(=O)O.N=C(N)c1ccc2cc(OC(=O)c3ccc(N=C(N)N)cc3)ccc2c1 | MDCK | cytopathic effect | B/Singapore/222/79 | EC50 | 1.5 µg/mL |
| C[C@H](CO)[C@@H](OC(=O)NCCO[C@@H]1O[C@@H](CO)[C@H](O)[C@@H](O)[C@H]1O)[C@@H]1OC(C(=O)O)=C[C@H](N=C(N)N)[C@H]1NC(=O)O | MDCK | plaque count | H3N2 AICHI | EC50 | <0.1 µg/mL |
| Cc1cn([C@@H]2O[C@H](CO)[C@@H](O)[C@H]2F)c(=O)[nH]c1=O | CEF | virus yield | Recombinant A/X31 | EC50 | >20 µM |
| O=[N+]([O-])c1c(N2CC[N+]3(CC2)CC[N+]2(CCNCC2)CC3)ncnc1N1CC[N+]2(CC1)CC[N+]1(CCNCC1)CC2 | MDCK | cytopathic effect | - | EC50 | >70 µg/mL |
| CCC(CC)[C@H](NC(C)=O)[C@@H]1[C@H](O)[C@@H](C(=O)O)C[C@H]1N=C(N)N | MDCK | cytopathic effect | Influenza A/Shandong/09/03 (H3N2) | EC50 | 0.007 µM |
| O=C(NCCc1ccccc1)C1=Cc2ccncc2CC1 | MDCK | cytopathic effect | - | EC50 | >344 µM |
| N#CNc1nncs1 | MDCK | plaque count | A/HONG KONG/8/68 | EC50 | 1.16 µg/mL |
| CC(C)Oc1ccccc1CNC(=O)c1ccc2cnccc2n1 | MDCK | cytopathic effect | - | EC50 | >10 µM |
| Nc1ccn([C@@H]2C=C(CO)[C@@H](O)[C@H]2O)c(=O)n1 | MDCK | cytopathic effect | - | EC50 | 4.5 µg/mL |
| O=[N+]([O-])c1c(N2CC[N+]3(CC2)CC[N+]2(CCNCC2)CC3)ncnc1N1CC[N+]2(CC1)CC[N+]1(CCN(c3ncnc(N4CC[N+]5(CC4)CC[N+]4(CCNCC4)CC5)c3[N+](=O)[O-])CC1)CC2 | MDCK | cytopathic effect | - | EC50 | >70 µg/mL |
| CC(C)[C@@H]1CCC2(C)C(N)C1[C@H](C)[C@@H]2C | MDCK | plaque count | - | EC50 | 67 µM |
| CCC | MDCK | - | victoria/3/75 (H3) | EC50 | >500 µM |
| Nc1ncc(/C=N/O)c(NCC2(CO)CCC2)n1 | MDCK | plaque count | H1N1 A/PR/8/34 | EC50 | 22–56 µM |
| CCCOc1ncn(-c2ccc(NC(=S)Nc3ncccn3)cc2)n1 | MDCK | cytopathic effect | Ishikawa | EC50 | 40 µg/mL |
| CC#Cc1cn([C@@H]2O[C@H](COP(=O)(N[C@@H](C)C(=O)OC)Oc3ccccc3)[C@@H](O)[C@@H]2O)c(=O)[nH]c1=O | MDCK | plaque count | H1N1 A/Sweden/3/50 | EC50 | >100 µM |
| CC(O)CCCCCC(CCCCCCCCCCCCCC1CC(=O)OC[C@H]2O[C@@H](OC(CCCCCCCCCCCC(CCCCCC(C)O)O[C@@H]3O[C@H](CO)[C@@H](O)[C@H](O)[C@H]3O)CC(=O)OC[C@@H]3O[C@H](O1)[C@@H](O)[C@H](O)[C@H]3O)[C@H](O)[C@@H](O)[C@@H]2O)O[C@@H]1O[C@H](CO)[C@@H](O)[C@H](O)[C@H]1O | MDCK | cytopathic effect | H1N1 | EC50 | 1.9 µg/mL |
| Cc1ccc(C2NC(=O)C3NC(=O)C(c4cc(O)cc(O)c4)NC(=O)C(NC(=O)C(N)Cc4ccc(O)cc4)Cc4c[nH]c5cc(ccc45)-c4cc3cc(c4O)Oc3ccc(cc3)CC(C(=O)NC(C(=O)O)c3ccc(O)c(O)c3)NC2=O)cc1Cl | MDCK | plaque count | A/Victoria | EC50 | 66 µg/mL |

Neighbouring rows are from separate reports. ECn is the concentration giving n% inhibition of infection, replication or growth. An empty or dashed field is not shown.